Anti-infective test results gathered from many reports (values: NIAID ChemDB through PubChem).

Shared fields: enzyme or target tests; species: HIV-1; target: Reverse transcriptase; endpoint: IC50

Conditions beyond the fields shown may differ between rows. An empty or dashed field is not shown. ICn: concentration for n% inhibition. Two numbers with a dash give a range or band.

CCN1c2ncc(CCOc3ccc(C(=O)O)c4c3CCN(C(=O)OC(C)(C)C)C4)cc2C(=O)N(C)c2cccnc21 ; changes: RT-Y188L ; method: nucleotide incorporation / radiometric ; result: 0.1–1 µM
Cc1cc(C(=O)O)ccc1NC(=O)CSc1nnc(C(F)F)n1-c1ccc(C)c2c1CCCC2 ; changes: RT-Y188L ; method: nucleotide incorporation / radiometric ; result: >0.1 µM
CS(=O)(=O)NC(=O)c1ccc(NC(=O)CSc2nnnn2-c2ccc(C3CC3)cc2Cl)c(Cl)c1 ; method: PicoGreen / fluorescence ; strain: WT ; result: <1 µM
CCN1c2ncc(CCOc3ccc(C(=O)O)c4c3CCCC4)cc2C(=O)N(C)c2ccc(C)nc21 ; changes: RT-Y188L ; method: nucleotide incorporation / radiometric ; result: 0.1–1 µM
COc1cccc2c(-n3c(Br)nnc3SCC(=O)Nc3ccc(C(=O)O)cc3Cl)cccc12 ; method: nucleotide incorporation / radiometric ; result: <0.05 µM
CN(C)CC(=O)NC(C)(C)C#Cc1ccc(NC(=O)CSc2nnnn2-c2cc(C(F)(F)F)ccc2Cl)c(Cl)c1 ; method: PicoGreen / fluorescence ; strain: WT ; result: <1 µM
CCN1c2ncc(CCOc3ccc(C(=O)O)c4c3CCCC4)cc2C(=O)N(C)c2ccc(Cl)nc21 ; changes: RT-K103N Y181C ; method: nucleotide incorporation / radiometric ; result: 0.1–1 µM
CCOC(=O)COc1ccc2[nH]c(C(=O)N3CCN(c4ncccc4NC(C)C)CC3)cc2c1 ; method: nucleotide incorporation ; result: <100 µM
CC(C)(C)c1ccc(-n2nnnc2SCC(=O)Nc2ccc(OCC(=O)NCc3ccc(N)cc3)cc2Cl)c(Cl)c1 ; changes: RT-K103 Y181C ; method: PicoGreen / fluorescence ; result: <1 µM
CCN1c2ncc(CCOc3ccc(-c4ccc(CC(=O)O)cc4[N+](=O)[O-])cc3C)cc2C(=O)N(C)c2cccnc21 ; method: nucleotide incorporation / radiometric ; strain: IIIB ; result: <0.05 µM
CCc1ccc(-n2c(Br)nnc2SCC(=O)Nc2ccc(C(=O)N3CCCCC3CO)cc2Cl)c2ccccc12 ; changes: RT-Y188L ; method: nucleotide incorporation / radiometric ; result: >0.1 µM
CC(C)(C#Cc1ccc(NC(=O)CSc2nnnn2-c2ccc(C(C)(C)C)cc2Cl)c(Cl)c1)OCC(=O)Nc1cnccn1 ; method: PicoGreen / fluorescence ; strain: WT ; result: <1 µM
CCN1c2ncc(CCOc3ccc(C(=O)O)c4c3CCN(C(=O)OC)C4)cc2C(=O)N(C)c2cccnc21 ; changes: RT-K103N Y181C ; method: nucleotide incorporation / radiometric ; result: 0.1–1 µM
CCN1c2ncc(CCOc3ccc(-c4ccc[n+]([O-])c4C)cc3C)cc2C(=O)N(C)c2cccnc21 ; method: nucleotide incorporation / radiometric ; strain: IIIB ; result: <0.05 µM
COc1ccc2c(c1)CN(c1nn3c(C)nnc3c3ccccc13)CC2 ; method: RT activity / fluorescence ; strain: 98US_MSC5016 ; result: 4.41 µM
CC(C)Nc1cccnc1N1CCN(C(=O)c2cc3ccc4ccccc4c3[nH]2)CC1 ; method: nucleotide incorporation ; result: <100 µM
CCN1c2ncc(CCOc3ccc(C(=O)O)c4c3CCN(C(=O)N(C)C)C4)cc2C(=O)N(C)c2cccnc21 ; changes: RT-K103N Y181C ; method: nucleotide incorporation / radiometric ; result: <0.1 µM
CNS(=O)(=O)c1ccc(NC(=O)CSc2nnc(C(F)F)n2-c2ccc(C)c3ccccc23)c(Cl)c1 ; method: nucleotide incorporation / radiometric ; result: <0.05 µM
CC(C)(C)c1ccc(-n2nnnc2SCC(=O)Nc2ccc(NC(=O)Cc3ccccc3C(F)(F)F)cc2Cl)c(Cl)c1 ; method: PicoGreen / fluorescence ; strain: WT ; result: <1 µM
Cc1cc(C2CC2)c2ccccc2c1-n1c(Br)nnc1SCC(=O)Nc1ccc(S(N)(=O)=O)cc1Cl ; changes: RT-Y181C ; method: nucleotide incorporation / radiometric ; result: <0.05 µM
c1ccc2c(c1)CN(c1nn3c(C4CC4)nnc3c3ccccc13)C2 ; method: RT activity / fluorescence ; strain: IIIB ; result: >100 µM
NS(=O)(=O)c1ccc(NC(=O)CSc2nnc(Br)n2-c2ccc(C3CC3)cc2OC(F)(F)F)c(Cl)c1 ; changes: RT-Y188L ; method: nucleotide incorporation / radiometric ; result: >0.1 µM
CCN1c2ncc(CCOc3ccc(/C=C(\C)C(=O)O)c4ccccc34)cc2C(=O)N(C)c2ccc(Cl)nc21 ; changes: RT-V106A ; method: nucleotide incorporation / radiometric ; result: 0.1–1 µM
CCOC(=O)CCNC(=O)c1ccc(NC(=O)CSc2nnc(Br)n2-c2ccc(C3CC3)c3ccccc23)c(Cl)c1 ; changes: RT-Y188L ; method: nucleotide incorporation / radiometric ; result: <0.05 µM
CC(C)(C)c1ccc(-n2nnnc2SCC(=O)Nc2ccc(NC(=O)Cc3c(Cl)cccc3Cl)cc2Cl)c(Cl)c1 ; method: PicoGreen / fluorescence ; strain: WT ; result: <1 µM
Cc1nnc2c3ccccc3c(N3CCc4cc(O)c(O)cc4C3)nn12 ; method: RT activity / fluorescence ; strain: KER2008 ; result: 1.99 µM
COc1ccc(CC(=O)Nc2ccc(NC(=O)CSc3nnnn3-c3ccc(C(C)(C)C)cc3Cl)c(Cl)c2)cc1 ; method: PicoGreen / fluorescence ; strain: WT ; result: <1 µM
Oc1cc2c(cc1O)CN(c1nn3c(C4CC4)nnc3c3ccccc13)CC2 ; method: RT activity / fluorescence ; strain: 98US_MSC5016 ; result: 1.79 µM
CCc1ccc(-n2c(Br)nnc2SCC(=O)Nc2ccc(S(N)(=O)=O)cc2Br)c2ccccc12 ; changes: RT-Y188L ; method: nucleotide incorporation / radiometric ; result: 0.05–0.1 µM
CC(C)(C)c1ccc(-n2nnnc2SCC(=O)Nc2ccc(-c3ccc(CCC(=O)O)cc3)cc2Cl)c(Cl)c1 ; method: PicoGreen / fluorescence ; strain: WT ; result: <1 µM
CC(C)Nc1nccnc1N1CCN(C(=O)c2cc3cc(F)ccc3[nH]2)CC1 ; method: nucleotide incorporation ; result: <100 µM
CCOC(=O)CCNC(=O)c1ccc(NC(=O)CSc2nnc(Br)n2-c2ccc(CC)c3ccccc23)c(Cl)c1 ; changes: RT-Y188L ; method: nucleotide incorporation / radiometric ; result: 0.05–0.1 µM
Cc1cc(NC(=O)c2ccc(NC(=O)CSc3nnnn3-c3ccc(C(C)(C)C)cc3Cl)c(Cl)c2)ccc1/C=C/C(=O)O ; changes: RT-K103 Y181C ; method: PicoGreen / fluorescence ; result: <1 µM
Cc1cc(S(N)(=O)=O)ccc1NC(=O)CSc1nnc(Br)n1-c1ccc(C)c2c1CCCC2 ; method: nucleotide incorporation / radiometric ; result: <0.05 µM
O=C(CSc1nnnn1-c1cc(C(F)(F)F)ccc1Cl)Nc1ccc(-c2ccc(OCCN3CCCCC3)cc2)c(F)c1Cl ; changes: RT-K103 Y181C ; method: PicoGreen / fluorescence ; result: <1 µM
CCN1c2ncc(CCOc3ccc(-c4ccc(C(=O)O)s4)cc3)cc2C(=O)N(C)c2cccnc21 ; changes: RT-K103N Y181C ; method: nucleotide incorporation / radiometric ; strain: IIIB ; result: 0.05–0.1 µM
CC(C)(C)c1ccc(-n2nnnc2SCC(=O)Nc2ccc(C(=O)Nc3ccc(C(=O)O)cc3)cc2Cl)c(Cl)c1 ; method: PicoGreen / fluorescence ; strain: WT ; result: <1 µM
CCN1c2ncc(CCOc3ccc(CC(=O)NN)c4ccccc34)cc2C(=O)N(C)c2ccc(Cl)nc21 ; changes: RT-Y188L ; method: nucleotide incorporation / radiometric ; result: 0.1–1 µM
O=C(O)CNC(=O)c1ccc(NC(=O)CSc2nnc(Br)n2-c2ccc(C3CC3)c3ccccc23)c(Cl)c1 ; method: nucleotide incorporation / radiometric ; result: <0.05 µM
CC(C)(C#Cc1ccc(NC(=O)CSc2nnnn2-c2ccc(C(C)(C)C)cc2Cl)c(Cl)c1)OCC(=O)Nc1ccccc1 ; changes: RT-K103 Y181C ; method: PicoGreen / fluorescence ; result: <1 µM
COC(=O)[C@H](CC(C)C)NC(=O)c1ccc(NC(=O)CSc2nnc(Br)n2-c2ccc(C3CC3)c3ccccc23)c(Cl)c1 ; changes: RT-Y188L ; method: nucleotide incorporation / radiometric ; result: 0.05–0.1 µM
CC(C)(C)c1ccc(-n2nnnc2SCC(=O)Nc2ccc(C(=O)NC3CCN(Cc4ccccc4)CC3)cc2Cl)c(Cl)c1 ; method: PicoGreen / fluorescence ; strain: WT ; result: <1 µM
CCc1ccc(-n2c(Br)nnc2SCC(=O)Nc2ccc(C(=O)NCC3CCNCC3)cc2Cl)c2ccccc12 ; changes: RT-Y181C ; method: nucleotide incorporation / radiometric ; result: >0.1 µM
CC(C)(C)c1ccc(-n2nnnc2SCC(=O)Nc2ccc(OCC(=O)NCc3ccc(O)c(O)c3)cc2Cl)c(Cl)c1 ; method: PicoGreen / fluorescence ; strain: WT ; result: <1 µM
CCN1c2ncc(CCOc3ccc(-c4ccc(F)c(C(=O)O)c4)cc3)cc2C(=O)N(C)c2cccnc21 ; method: nucleotide incorporation / radiometric ; strain: IIIB ; result: <0.05 µM
CCc1cc(CCc2nc3ccccc3o2)c(=O)[nH]c1C ; method: nucleotide incorporation ; result: 0.039 µM
NS(=O)(=O)c1ccc(NC(=O)CSc2nnc(C(F)F)n2-c2ccc3c4c(cccc24)CC3)c(Cl)c1 ; changes: RT-Y181C ; method: nucleotide incorporation / radiometric ; result: <0.05 µM
CC(C)CCC(=O)Nc1ccc(NC(=O)CSc2nnnn2-c2ccc(C(C)(C)C)cc2Cl)c(Cl)c1 ; changes: RT-K103 Y181C ; method: PicoGreen / fluorescence ; result: <1 µM
Cc1cc(C)c2ccccc2c1-n1c(SCC(=O)Nc2ccc(S(N)(=O)=O)cc2Cl)nnc1C(F)F ; changes: RT-Y188L ; method: nucleotide incorporation / radiometric ; result: >0.1 µM
Cc1ccc(-n2nnnc2SCC(=O)Nc2ccc(C#CC(C)(C)O)cc2Cl)c(Cl)c1C(F)(F)F ; changes: RT-K103 Y181C ; method: PicoGreen / fluorescence ; result: <1 µM
O=C(CSc1nnc(C(F)F)n1-c1ccc(C2CC2)c2ccccc12)Nc1ccc(C(=O)O)cc1Cl ; changes: RT-Y181C ; method: nucleotide incorporation / radiometric ; result: <0.05 µM
CCNc1cccnc1N1CCN(C(=O)c2cc(C)c(OC)c(C)c2)CC1 ; method: nucleotide incorporation ; result: <100 µM
Nc1cc2c(cc1F)CN(c1nn3c(C4CC4)nnc3c3ccccc13)CC2 ; method: RT activity / fluorescence ; strain: 98US_MSC5016 ; result: 0.28 µM
CC(C)(C#Cc1ccc(NC(=O)CSc2nnnn2-c2ccc(C3CC3)cc2Cl)c(Cl)c1)OCCNC1CC1 ; method: PicoGreen / fluorescence ; strain: WT ; result: <1 µM
Fc1ccc2c(c1)CCN(c1nn3c(C4CC4)nnc3c3ccccc13)C2 ; method: RT activity / fluorescence ; strain: KER2008 ; result: 1.5 µM
Cc1ccc(-n2c(C)nnc2SCC(=O)Nc2ccc(S(N)(=O)=O)cc2Cl)c2c1CCCC2 ; changes: RT-Y181C ; method: nucleotide incorporation / radiometric ; result: 0.05–0.1 µM
CNC(=O)NC(C)(C)C#Cc1ccc(NC(=O)CSc2nnnn2-c2ccc(C3CC3)cc2Cl)c(Cl)c1 ; method: PicoGreen / fluorescence ; strain: WT ; result: <1 µM
c1ccc2c(c1)c(N1CCc3[nH]ccc3C1)nn1c(C3CC3)nnc21 ; method: RT activity / fluorescence ; strain: 98US_MSC5016 ; result: 5.54 µM
CC(C)(C)c1ccc(-n2nccc2SCC(=O)Nc2ccc(-c3ccc(CC(=O)O)cc3)cc2Cl)c(Cl)c1 ; method: PicoGreen / fluorescence ; strain: WT ; result: <1 µM
CCOC(=O)N1CCC(NC(=O)c2ccc(NC(=O)CSc3nnc(Br)n3-c3ccc(CC)c4ccccc34)c(Cl)c2)CC1 ; changes: RT-Y188L ; method: nucleotide incorporation / radiometric ; result: >0.1 µM
O=C(O)Cc1ccc(-c2ccc(NC(=O)CSc3nnnn3-c3ccc(OC(F)(F)F)cc3Cl)c(Cl)c2)cc1 ; method: PicoGreen / fluorescence ; strain: WT ; result: <1 µM
CCc1ccc(-n2c(Br)nnc2SCC(=O)Nc2ccc(S(N)(=O)=O)cc2Cl)c2ccccc12 ; changes: RT-Y181C ; method: nucleotide incorporation / radiometric ; result: <0.05 µM
CCN1c2ncc(CCOc3ccc4cc(C(=O)NN)ccc4c3)cc2C(=O)N(C)c2cccnc21 ; changes: RT-K103N Y181C ; method: nucleotide incorporation / radiometric ; result: 0.1–1 µM

Repeating the first 5 entries:

smiles,changes,method,strain,result
CCN1c2ncc(CCOc3ccc(C(=O)O)c4c3CCN(C(=O)OC(C)(C)C)C4)cc2C(=O)N(C)c2cccnc21,RT-Y188L,nucleotide incorporation / radiometric,,0.1–1 µM
Cc1cc(C(=O)O)ccc1NC(=O)CSc1nnc(C(F)F)n1-c1ccc(C)c2c1CCCC2,RT-Y188L,nucleotide incorporation / radiometric,,>0.1 µM
CS(=O)(=O)NC(=O)c1ccc(NC(=O)CSc2nnnn2-c2ccc(C3CC3)cc2Cl)c(Cl)c1,,PicoGreen / fluorescence,WT,<1 µM
CCN1c2ncc(CCOc3ccc(C(=O)O)c4c3CCCC4)cc2C(=O)N(C)c2ccc(C)nc21,RT-Y188L,nucleotide incorporation / radiometric,,0.1–1 µM
COc1cccc2c(-n3c(Br)nnc3SCC(=O)Nc3ccc(C(=O)O)cc3Cl)cccc12,,nucleotide incorporation / radiometric,,<0.05 µM